Assay results: publication PMC10819887, “Production of AFB1 High-Specificity Monoclonal Antibody by Three-Stage Screening Combined with the De-Homologation of Antibodies and the Development of High-Throughput icELISA” (Toxins, 2023)
Several values for one entry are separate records, joined by “and”; a condition that tells them apart may be missing. Identical values can stand only once.

System: ZFG8 monoclonal antibody
Design: species or system mouse

Substance: aflatoxin B1 [AFB1]
- ELISA Recovery (%): 107% and 95% and 93% and 90% and 92% and 84%
